The record followed here is publication PMC12990809.

The direction of at least one scale is not stated here. Tags and fusion partners may be left off the protein sequences shown.

Data set [1] concerns the target T1, LmjF.17.0550 (Leishmania major) (UniProt Q4QED9).
T1 sequence: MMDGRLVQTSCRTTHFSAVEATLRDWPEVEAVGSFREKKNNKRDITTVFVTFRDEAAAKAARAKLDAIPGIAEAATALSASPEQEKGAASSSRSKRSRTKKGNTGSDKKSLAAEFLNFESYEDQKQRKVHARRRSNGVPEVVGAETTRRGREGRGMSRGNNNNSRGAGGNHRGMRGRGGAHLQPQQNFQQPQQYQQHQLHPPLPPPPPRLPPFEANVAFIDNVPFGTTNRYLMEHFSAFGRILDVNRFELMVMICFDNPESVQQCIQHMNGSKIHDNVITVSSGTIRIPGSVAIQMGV
The data set can be described thus: pull-down. The conditions noted are these: 20 nM protein, 1.5 uM RNA pool; 20 mM HEPES pH 7.8, 70 mM KCl, 10 mM NaCl, 10% glycerol, 2 mM DTT, 0.1 ug/uL BSA; 30 min, 4 C; purified recombinant protein; protein details: N-terminal GST (kept); only the motif is given.

In data set [2] the target is T2, LmjF.36.5420 (Leishmania major) (UniProt Q4Q0L9).
T2 sequence: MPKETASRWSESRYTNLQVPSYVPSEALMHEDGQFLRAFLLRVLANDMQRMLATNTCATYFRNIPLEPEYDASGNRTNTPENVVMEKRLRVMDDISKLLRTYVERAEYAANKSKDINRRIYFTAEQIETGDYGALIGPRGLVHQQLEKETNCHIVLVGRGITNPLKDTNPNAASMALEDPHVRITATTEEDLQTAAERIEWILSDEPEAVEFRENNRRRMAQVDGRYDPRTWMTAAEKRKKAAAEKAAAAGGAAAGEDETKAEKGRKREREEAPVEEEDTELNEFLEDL
As to the kind of experiment: pull-down. The conditions noted are these: 20 nM protein, 1.5 uM RNA pool; 20 mM HEPES pH 7.8, 70 mM KCl, 10 mM NaCl, 10% glycerol, 2 mM DTT, 0.1 ug/uL BSA; 30 min, 4 C; purified recombinant protein; protein details: N-terminal GST (kept); only the motif is given.

GCGCGG [RNAcompete motif RNCMPT00615]: the binding signal (z-score (mean of top ten 7-mers)) in data set [1] was determined as 4.66. Regarding ACAACUA [RNAcompete motif RNCMPT00692], in data set [2], the binding signal (z-score (mean of top ten 7-mers)) amounted to 5.55.
